Measured values from several laboratories, pooled; numbers as filed in NIAID ChemDB.

All rows: growth or infection tests; agent: HIV-1; measure: EC50

Rows are shuffled and stem from different studies. ECn is the concentration giving n% inhibition of infection, replication or growth. Blank or dashed fields: not listed here.

Cc1ncc(-c2ccc(O[C@H](C)C3CC3)nc2)c(N2CCC(C)(C)CC2)c1[C@H](OC(C)(C)C)C(=O)O ; method: luminescence ; strain or isolate: NL4-3 ; cell line: MT-2 ; result: 0.0124 µM
Cc1cc(S(N)(=O)=O)ccc1NC(=O)COc1ccc(Cl)cc1C(=O)c1cc(F)cc(C#N)c1 ; method: β-galactosidase ; strain or isolate: HXB2 (RT-K103N Y181C) Recombinant ; changes: RT-K103N Y181C ; cell line: HeLa + HELA CD4+ ; result: <0.01 µM
CCCOCCOc1ccc(-c2cnc(C)c([C@H](OC(C)(C)C)C(=O)O)c2N2CCC(C)(C)CC2)nc1 ; method: luminescence ; strain or isolate: NL4-3 ; cell line: MT-2 ; result: 0.0019 µM
CC(C)C1=C2[C@H]3CC[C@@H]4[C@@]5(C)CC[C@H](OC(=O)[C@H]6C[C@@H](C(=O)O)C6(C)C)C(C)(C)[C@@H]5CC[C@@]4(C)[C@]3(C)CC[C@@]2([C@@H](O)CN(CCN(C)C)C(=O)c2ccccc2Cl)CC1=O ; method: p24 / ELISA ; strain or isolate: 92HT599 ; cell line: MT-2 ; result: <1 µM
COCCCOc1ccc(-c2cnc(C)c([C@H](OC(C)(C)C)C(=O)O)c2N2CCC(C)(C)CC2)nc1 ; method: luminescence ; strain or isolate: NL4-3 ; cell line: MT-2 ; result: 0.0024 µM
Cc1cc(S(N)(=O)=O)ccc1NC(=O)COc1ccc(Cl)cc1C(=O)c1cc(F)cc(C(F)(F)F)c1 ; method: β-galactosidase ; strain or isolate: HXB2 ; changes: RT-Y181C ; cell line: HeLa + HELA CD4+ ; result: <0.01 µM
COc1cc(Cl)ccc1CNCC[C@@]12CC[C@]3(C)[C@H](CC[C@@H]4[C@@]5(C)CC[C@H](OC(=O)[C@H]6C[C@@H](C(=O)O)C6(C)C)C(C)(C)[C@@H]5CC[C@]43C)C1=C(C(C)C)C(=O)C2 ; method: p24 / ELISA ; strain or isolate: 92HT599 ; cell line: MT-2 ; result: <1 µM
COc1ccc(OCCNc2ccc(-c3cnc(C)c([C@H](OC(C)(C)C)C(=O)O)c3N3CCC(C)(C)CC3)cn2)cc1 ; method: luminescence ; strain or isolate: NL4-3 ; cell line: MT-2 ; result: 0.002 µM
Cc1cc(S(N)(=O)=O)ccc1NC(=O)COc1ccc(Cl)cc1C(=O)c1cccc(C#N)n1 ; method: β-galactosidase ; strain or isolate: HXB2 ; changes: RT-V106I ; cell line: HeLa + HELA CD4+ ; result: <0.01 µM
CC1CC(C)CN(S(=O)(=O)c2ccccc2[N+](=O)[O-])C1 ; method: GFP / fluorescence ; strain or isolate: F-93BR20 ; cell line: HeLa ; result: 0.1 µM
CC(C)C1=C2[C@H]3CC[C@@H]4[C@@]5(C)CC[C@H](OC(=O)[C@H]6C[C@@H](C(=O)O)C6(C)C)C(C)(C)[C@@H]5CC[C@@]4(C)[C@]3(C)CC[C@@]2([C@@H](O)CNC(=O)c2ccccc2)CC1=O ; method: p24 / ELISA ; strain or isolate: 92HT599 ; cell line: MT-2 ; result: <1 µM
CC(=O)c1c(C)nc(-c2ccccc2)nc1NC(=O)c1ccccc1 ; method: GFP / fluorescence ; strain or isolate: A-92UG029 ; cell line: HeLa ; result: 2 µM
Cc1cc(C#N)cc(C(=O)c2cc(Cl)ccc2OCC(=O)Nc2cnc(S(N)(=O)=O)cc2C)c1 ; method: β-galactosidase ; strain or isolate: HXB2 ; changes: RT-V108I ; cell line: HeLa + HELA CD4+ ; result: <0.01 µM
Cc1ncc(-c2cnc(OCC3CC(C)C3)c(F)c2)c(N2CCC(C)(C)CC2)c1[C@H](OC(C)(C)C)C(=O)O ; method: luminescence ; strain or isolate: NL4-3 ; cell line: MT-2 ; result: 0.0049 µM
Cc1cc(S(N)(=O)=O)ccc1NC(=O)COc1ccc(Cl)cc1C(=O)c1cccc(C#N)c1 ; method: β-galactosidase ; strain or isolate: HXB2 ; changes: RT-G190E ; cell line: HeLa + HELA CD4+ ; result: <0.01 µM
[2H]C(CCCN)(CNCC[C@@]12CC[C@]3(C)[C@H](CC[C@@H]4[C@@]5(C)CC[C@H](OC(=O)[C@H]6C[C@@H](C(=O)O)C6(C)C)C(C)(C)[C@@H]5CC[C@]43C)C1=C(C(C)C)C(=O)C2)NC(=O)c1ccc(Cl)cc1 ; method: p24 / ELISA ; strain or isolate: 92HT599 ; cell line: MT-2 ; result: <1 µM
Cc1ncc(-c2ccc(NCCOc3ccc(Cl)cc3)cn2)c(N2CCC(C)(C)CC2)c1[C@H](OC(C)(C)C)C(=O)O ; method: luminescence ; strain or isolate: NL4-3 ; cell line: MT-2 ; result: 0.004 µM
[2H]C(CCN)(CNC[C@H](O)[C@@]12CC[C@]3(C)[C@H](CC[C@@H]4[C@@]5(C)CC[C@H](OC(=O)[C@H]6C[C@@H](C(=O)O)C6(C)C)C(C)(C)[C@@H]5CC[C@]43C)C1=C(C(C)C)C(=O)C2)NC(=O)c1ccc(Cl)cc1 ; method: p24 / ELISA ; strain or isolate: 92HT599 ; cell line: MT-2 ; result: <1 µM
Cc1cc(C#N)cc(C(=O)c2cc(Cl)ccc2OCC(=O)Nc2ccc(S(N)(=O)=O)nc2C)c1 ; method: β-galactosidase ; strain or isolate: HXB2 ; changes: RT-V108I Y181C ; cell line: HeLa + HELA CD4+ ; result: <0.01 µM
Cc1ncc(-c2cnc(OCCOc3cc(F)cc(F)c3)c(F)c2)c(N2CCC(C)(C)CC2)c1[C@H](OC(C)(C)C)C(=O)O ; method: luminescence ; strain or isolate: NL4-3 ; cell line: MT-2 ; result: 0.0017 µM
CC(C)C1=C2[C@H]3CC[C@@H]4[C@@]5(C)CC[C@H](OC(=O)[C@H]6C[C@@H](C(=O)O)C6(C)C)C(C)(C)[C@@H]5CC[C@@]4(C)[C@]3(C)CC[C@@]2(CCNCC(C)(C)NC(=O)CN2CCCCC2)CC1=O ; method: p24 / ELISA ; strain or isolate: 92HT599 ; cell line: MT-2 ; result: <1 µM
CS(=O)(=O)Nc1ccc(NC(=O)COc2ccc(Cl)cc2C(=O)c2ccccc2)cc1 ; method: cytopathic effect / propidium iodide ; strain or isolate: IIIB ; cell line: MT-4 ; result: <0.01 µM

The first 2 rows once more:

smiles | method | strain or isolate | changes | cell line | result
Cc1ncc(-c2ccc(O[C@H](C)C3CC3)nc2)c(N2CCC(C)(C)CC2)c1[C@H](OC(C)(C)C)C(=O)O | luminescence | NL4-3 | - | MT-2 | 0.0124 µM
Cc1cc(S(N)(=O)=O)ccc1NC(=O)COc1ccc(Cl)cc1C(=O)c1cc(F)cc(C#N)c1 | β-galactosidase | HXB2 (RT-K103N Y181C) Recombinant | RT-K103N Y181C | HeLa + HELA CD4+ | <0.01 µM